Anti-infective test results gathered from many reports (values: NIAID ChemDB through PubChem).

All rows: growth or infection tests; species: Candida albicans

A number after MIC or MFC names an inhibition level or a share of isolates. An empty or dashed field is not shown. Rows are shuffled and stem from different studies.

structure | endpoint | method | strain or isolate | result
CC(O)C1NC(=O)C(CCc2ccc(O)cc2)NC(=O)C2C[C@@H](O)CN2C(=O)C(C(C)O)NC(=O)[C@@H](NC(=O)c2ccc(N(C)C)cc2)CCCNC(=O)C2C[C@H](N)CN2C1=O | MIC |  | ATCC CCH442 | >100 µg/mL
Clc1ccc(C(Cn2ccnc2)OCc2ccc(-c3ccccc3)cc2)c(Cl)c1 | MIC |  | CA6 | 128 µg/mL
CC(C)C(=O)CCC[C@@H]1CO[C@@](Cn2cccc2)(c2ccc(F)cc2F)C1 | MIC |  | A.10231 | >100 µg/mL
C=C=CCN1C[C@H](OC[C@@]23C[C@@H]4[C@H](C)CC[C@H]4[C@@]4(C=O)C[C@@H]2CC(C(C)C)[C@@]34C(=O)O)O[C@H](C)C1 | MIC50 |  | 16 isolates/fluconazole resistant | 0.03 µg/mL
Cc1c(S(=O)(=O)c2ccccc2)[n+](=O)c2cc(Cl)ccc2n1[O-] | MIC |  | Clinical isolate 24 | 31.25 µg/mL
Cc1ccc(-c2c3c(N)c4c(nc3nc3c2c(C)nn3-c2ccccc2)CCCCC4)cc1 | MIC80 | broth dilution / absorbance | CCC 127 | 62.5 µg/mL
C[C@@H](O)[C@@H]1NC(=O)[C@H](CCc2ccc(O)cc2)NC(=O)[C@@H]2C[C@@H](O)CN2C(=O)[C@H]([C@@H](C)O)NC(=O)[C@@H](NC(=O)c2ccc(N3CCNCC3)cc2)CCCNC(=O)[C@@H]2C[C@H](N)CN2C1=O | MIC |  | ATCC 38247 | >100 µg/mL
C=CCSS(=O)CC=C | MIC50 | broth dilution | Clinical Isolate 3055 | 0.39 µg/mL
CC(C)(O)c1cn(-c2ccc(Cl)cc2)nn1 | MIC | broth dilution | URM 4990 | 256 µg/mL
CCCCCOc1ccc(-c2ccc(-c3ccc(C(=O)N[C@H]4CCCNC(=O)[C@@H]5CCCN5C(=O)[C@H]([C@@H](C)O)NC(=O)[C@H](CCc5ccc(O)cc5)NC(=O)[C@@H]5C[C@@H](O)CN5C(=O)[C@H]([C@@H](C)O)NC4=O)cc3)cc2)cc1 | MIC |  | ATCC 38247 | 6.25 µg/mL
CC(O)C1NC(=O)C(CCc2ccc(O)cc2)NC(=O)C2C[C@@H](O)CN2C(=O)C(C(C)O)NC(=O)[C@@H](NC(=O)c2ccccc2)CCCNC(=O)C2C[C@H](N)CN2C1=O | MIC |  | ATCC 10231 | >100 µg/mL
C[C@@H](c1nc(-c2ccc(C#N)cc2)cs1)[C@](O)(Cn1cnnc1)c1ccc(F)cc1F | MIC |  | A28200 | ≤0.007 µg/mL
C[C@@H](N1CCN(Cc2cn(Cc3ccc(C(F)(F)F)cc3)c3c(F)cccc23)CC1)[C@](O)(Cn1cncn1)c1ccc(F)cc1F | MIC80 | resazurin | ATCC 90028 | 0.125 µg/mL
CCCCCOc1ccc(-c2ccc(-c3ccc(C(=O)N[C@H]4CCCNC(=O)[C@@H]5C[C@H](O)CN5C(=O)[C@H]([C@@H](C)O)NC(=O)[C@H](CCc5ccc(O)cc5)NC(=O)[C@@H]5C[C@@H](O)CN5C(=O)[C@H]([C@@H](C)O)NC4=O)cc3)cc2)cc1 | MIC |  | ATCC 62376 | 0.39 µg/mL
CCC(C)n1ncn(-c2ccc(N3CCN(c4ccc(OC[C@H]5CO[C@](Cn6cncn6)(c6ccc(Cl)cc6Cl)O5)cc4)CC3)cc2)c1=O | MFC90 |  | Fluconazole-resistant 4 isolates pooled | >8 µg/mL
c1ccc(-c2ccc(COC(Cn3ccnc3)c3ccccc3)cc2)cc1 | MIC |  | CA7 | >128 µg/mL
CCCCCOc1ccc(-c2ccc(-c3ccc(C(=O)N[C@H]4CCCNC(=O)C5C[C@H](O)N5C(=O)C(C(C)O)NC(=O)C(CCc5ccc(O)cc5)NC(=O)C5C[C@@H](O)CN5C(=O)C(C(C)O)NC4=O)cc3)cc2)cc1 | MIC |  | ATCC 10231 | 0.78 µg/mL
Cc1ccc(-c2c3c(N)c4c(nc3nc3c2c(C)nn3-c2ccccc2)CCCC4)cc1 | MIC100 | broth dilution / absorbance | CCC 126 | 31.2 µg/mL
Cc1c(O)cccc1C(=O)N[C@@H](CSc1ccccc1)[C@H](O)CN1C[C@H]2CCCC[C@H]2C[C@H]1C(=O)NC(C)(C)C | MIC |  | I36 | 64 µg/mL
OC(CN1CCN(c2ccc(OCc3ccncc3)cc2)CC1)(Cn1cncn1)c1ccc(F)cc1F | MIC80 |  | 304004 | ≤0.063 µg/mL
CC(C)C1C[C@H]2C[C@]3(C=O)[C@@H]4CC[C@@H](C)[C@H]4C[C@@]2(CO[C@H]2CN(C4CC4)C[C@@H](C)O2)[C@]13C(=O)O | MIC |  | CL-236 | 0.008 µg/mL
Cc1c(Cl)[n+](=O)c2cc(Cl)ccc2n1[O-] | MIC |  | Clinical isolate 19 | 7.8 µg/mL
Clc1ccc(C(Cn2ccnc2)OC/C=C/c2ccccc2)c(Cl)c1 | MIC |  | CDCB385 | 128 µg/mL
Cc1ccc(-c2c3c(N)c4c(nc3nc3c2c(C)nn3-c2ccccc2)CCC4)cc1 | MIC50 | broth dilution / absorbance | CCC 129 | 62.5 µg/mL
CCCCCOc1ccc(-c2ccc(-c3ccc(C(=O)N[C@H]4CCCNC(=O)C5C[C@H](N)CN5C(=O)C(C(C)O)NC(=O)C(Cc5ccccc5)NC(=O)C5C[C@@H](O)CN5C(=O)C(C(C)O)NC4=O)cc3)cc2)cc1 | MIC |  | ATCC CCH442 | 0.78 µg/mL
CC(O)Cc1ccc(Cn2cc(CN3CCN([C@H](C)[C@](O)(Cn4cncn4)c4ccc(F)cc4F)CC3)c3ccccc32)cc1 | MIC80 | resazurin | ATCC 90028 | 4 µg/mL
Cc1c(S(=O)(=O)c2ccccc2)[n+](=O)c2ccccc2n1[O-] | MIC |  | Clinical isolate 24 | 31.25 µg/mL
CCCCCOc1ccc(-c2ccc(-c3ccc(C(=O)N[C@H]4CCCNC(=O)[C@@H]5C[C@H](N)CN5C(=O)[C@@H]([C@H](C)O)NC(=O)C(CCc5ccc(O)cc5)NC(=O)[C@@H]5C[C@@H](O)CN5C(=O)[C@H]([C@@H](C)O)NC4=O)cc3)cc2)cc1 | MIC |  | ATCC 38247 | 6.25 µg/mL
Clc1ccc(C(Cn2ccnc2)OCc2cccc3ccccc23)c(Cl)c1 | MIC |  | CA6 | 2 µg/mL
Cc1nn(-c2ccccc2)c2nc3nc4c(c(N)c3c(-c3ccc(Cl)cc3)c12)CCCC4 | MIC80 | broth dilution / absorbance | ATCC 10231 | 125 µg/mL
CCCCCOc1ccc(-c2ccc(-c3ccc(C(=O)N[C@H]4CCCNC(=O)C5C[C@H](N)CN5C(=O)C(Cc5cnc[nH]5)NC(=O)C(CCc5ccc(O)cc5)NC(=O)C5C[C@@H](O)CN5C(=O)C(C(C)O)NC4=O)cc3)cc2)cc1 | MIC |  | ATCC 62376 | 0.78 µg/mL
C[C@H]1[C@H](O)[C@@H](C)/C=C/C=C/C=C/C=C/C=C/C=C/C=C/[C@H](O[C@@H]2O[C@H](C)[C@@H](O)[C@H](N)[C@@H]2O)C[C@@H]2O[C@](O)(C[C@@H](O)C[C@@H](O)CC[C@H](O)[C@@H](O)C[C@@H](O)CC(=O)O[C@H]1C)C[C@H](O)[C@H]2C(=O)O | MIC100 | broth dilution / absorbance | CCC 129 | 0.78 µg/mL
Clc1ccc(C(Cn2ccnc2)OCc2ccc(-c3ccccc3)cc2)cc1 | MIC |  | CDCB385 | 128 µg/mL
C[C@@H](N1CCN(Cc2cn(Cc3ccc(Cl)cc3)c3c(Cl)cccc23)CC1)[C@](O)(Cn1cncn1)c1ccc(F)cc1F | MIC80 | resazurin | ATCC 36082 | 0.125 µg/mL
COC(/C=C/c1ccccc1)=C1/C(=O)C=C(C)C1=O | MIC50 |  | Isolate 8 azole-resistant | 0.9 µg/mL
O[C@](Cn1cncn1)(Cn1cnc(/C=C/c2ccc(OCC(F)(F)C(F)F)cc2)n1)c1ccc(F)cc1F | MIC |  | Isolate 04-32 | 0.5 µg/mL
CC(C)C(=O)CCC[C@@H]1CO[C@@](Cn2cncn2)(c2ccc(F)cc2F)C1 | MIC |  | A.10231 | >100 µg/mL
c1ccc(C(Cn2ccnc2)OCc2cccc3ccccc23)cc1 | MIC |  | CA12 | 128 µg/mL
CCOc1cc2c(cc1F)n([O-])c(C)c(Cl)[n+]2=O | MIC |  | Clinical isolate 24 | 31.25 µg/mL
CCCCCOc1ccc(-c2ccc(-c3ccc(C(=O)N[C@H]4CCCNC(=O)[C@@H]5C[C@H](N)CN5C(=O)[C@H]([C@@H](C)O)NC(=O)[C@H](CCc5ccccc5)NC(=O)[C@@H]5C[C@@H](O)CN5C(=O)[C@H]([C@@H](C)O)NC4=O)cc3)cc2)cc1 | MIC |  | ATCC 62376 | 1.56 µg/mL
C=CCc1ccc(Cn2cc(CN3CCN([C@H](C)[C@](O)(Cn4cncn4)c4ccc(F)cc4F)CC3)c3ccccc32)cc1 | MIC80 | resazurin | ATCC 36082 | 16 µg/mL
CCCCCCCCOc1ccc(-c2ccc(C(=O)N[C@H]3CCCNC(=O)[C@@H]4C[C@H](N)CN4C(=O)[C@H]([C@@H](C)O)NC(=O)[C@H](CCc4ccc(O)cc4)NC(=O)[C@@H]4C[C@@H](O)CN4C(=O)[C@H]([C@@H](C)O)NC3=O)cc2)cc1 | MIC |  | ATCC 62376 | 0.2 µg/mL
C=C(C)CN1C[C@H](OC[C@@]23C[C@@H]4[C@H](C)CC[C@H]4[C@@]4(C=O)C[C@@H]2CC(C(C)C)[C@@]34C(=O)O)O[C@H](C)C1 | MIC90 |  | 16 isolates | 0.008 µg/mL
CCC(C)CC(C)CCCCCCCCC(=O)N[C@H]1C[C@@H](O)[C@H](NCCN)NC(=O)[C@@H]2[C@@H](O)CCN2C(=O)[C@H]([C@H](O)CCN)NC(=O)[C@H]([C@H](O)[C@@H](O)c2ccc(O)cc2)NC(=O)[C@@H]2C[C@@H](O)CN2C(=O)[C@H]([C@@H](C)O)NC1=O | MIC50 |  | 10 isolates azole-resistant | 0.2 µg/mL
C(=C\c1ccccc1)/COC(Cn1ccnc1)c1ccccc1 | MIC |  | CA6 | 128 µg/mL
CC(C)C(=N)CCC[C@H]1CO[C@@](Cn2ccnc2)(c2ccc(F)cc2F)C1 | MIC |  | IFO. 1385 | 12.5 µg/mL
CC(C)(C)c1ccc(COC(Cn2ccnc2)c2ccc(Cl)cc2)cc1 | MIC |  | CA6 | >128 µg/mL
CC(C)C(=O)CCC[C@H]1CO[C@@](Cn2cccc2)(c2ccc(F)cc2F)C1 | MIC |  | CI-2 | >100 µg/mL
C[C@@H](N1CCN(Cc2cn(Cc3ccc(F)cc3)c3c(Cl)cccc23)CC1)[C@](O)(Cn1cncn1)c1ccc(F)cc1F | MIC80 | resazurin | ATCC 64548 | 0.125 µg/mL
CC(C)C(=N)CCC=C1CO[C@@](Cn2ccnc2)(c2ccc(F)cc2F)C1 | MIC |  | A.10231 | 100 µg/mL
Nc1[nH]c(=O)ncc1F | MIC90 |  | 10 isolates azole-resistant | 0.64 µg/mL

A second listing of 5 rows from above:

| structure | endpoint | method | strain or isolate | result |
|---|---|---|---|---|
| C[C@@H](O)[C@@H]1NC(=O)[C@H](CCc2ccc(O)cc2)NC(=O)[C@@H]2C[C@@H](O)CN2C(=O)[C@H]([C@@H](C)O)NC(=O)[C@@H](NC(=O)c2ccc(N3CCNCC3)cc2)CCCNC(=O)[C@@H]2C[C@H](N)CN2C1=O | MIC |  | ATCC 38247 | >100 µg/mL |
| C(=C\c1ccccc1)/COC(Cn1ccnc1)c1ccccc1 | MIC |  | CA6 | 128 µg/mL |
| Cc1ccc(-c2c3c(N)c4c(nc3nc3c2c(C)nn3-c2ccccc2)CCC4)cc1 | MIC50 | broth dilution / absorbance | CCC 129 | 62.5 µg/mL |
| C[C@@H](c1nc(-c2ccc(C#N)cc2)cs1)[C@](O)(Cn1cnnc1)c1ccc(F)cc1F | MIC |  | A28200 | ≤0.007 µg/mL |
| C[C@@H](N1CCN(Cc2cn(Cc3ccc(F)cc3)c3c(Cl)cccc23)CC1)[C@](O)(Cn1cncn1)c1ccc(F)cc1F | MIC80 | resazurin | ATCC 64548 | 0.125 µg/mL |